This is an account of results in paper PMC10307035, “Antiviral activity of singlet oxygen-photogenerating perylene compounds against SARS-CoV-2: Interaction with the viral envelope and photodynamic virion inactivation” (Virus Research, 2023).

The data set relates to Vero cell membranes. In words: Confocal microscopy of compound-treated Vero cells. Format: cell-based, African Green Monkey. As to conditions: 10 µM, 1 h.
For the molecule `O=c1[nH]c(=O)n([C@H]2C[C@H](O)[C@@H](CO)O2)cc1C#Cc1ccc2c3cccc4cccc(c5cccc1c52)c43` [Compound 2, 5-(perylen-3-yl)ethynyl-2′-deoxy-uridine], the “localisation in Vero cells” value was “predominantly incorporated into the cytoplasmatic membrane and the nuclear envelope”.
For `CC(C)(C)C(=O)OCn1c(=O)c(C#Cc2ccc3c4cccc5cccc(c6cccc2c63)c54)cn(CC(=O)N(CCO)CCO)c1=O` [Compound 13] the value was “mainly localized in intracellular membranes and nuclear envelopes, and even in the nuclei”.
For `CN(C)c1ccc(C#Cc2ccc3c4cccc5cccc(c6cccc2c63)c54)cc1` [Compound 14] the value was “preferentially accumulated inside the cytoplasmic vesicles”.
Turning to `O=C(NCCCCO)c1ccc(-c2ccc3c4cccc5cccc(c6cccc2c63)c54)s1` [Compound 17], the “localisation in Vero cells” value is “predominantly incorporated into the cytoplasmatic membrane and the nuclear envelope”.
